# Data as given in PubChem BioAssay AID565 (University of Pittsburgh Molecular Library Screening Center, 2006).
# The list shows a part of the results, in another mix than the full data. Activity calls are given as the source filed them. Rule as the data show it: active = inhibition above about 50%; inactive = the rest.
# Target: Gag-Pol polyprotein (Human immunodeficiency virus type 1 group M subtype B (isolate HXB2)) (UniProt P04585)
# Experiment: blockers of HIV-1 RNase H RNA/DNA cleavage – biochemical, fluorescence, primary screen (AID 565)
# Settings: RT-RNase H RNA/DNA duplex cleavage, at 10 µM, stronger effect = higher value
row,SMILES,inhibition
1,Cc1nc2ccc3ccccc3c2o1.O=[N+]([O-])c1cc([N+](=O)[O-])c(O)c([N+](=O)[O-])c1,inactive: 2.95%
2,COc1ccccc1OP(C)(=O)Nc1ccc(C)c(C)c1 (stereo not drawn),inactive: 2.05%
3,CP(=O)(Nc1ccccn1)Oc1ccccc1 (stereo not drawn),inactive: -9%
4,CP(=O)(Oc1ccccc1)N1CCOC1=O (stereo not drawn),inactive: 0.9%
5,COc1ccccc1OP(C)(=O)Nc1c(C)n(C)n(-c2ccccc2)c1=O (stereo not drawn),inactive: -7.01%
6,CCN(CC)CC(O)COC(=O)C(O)(c1ccccc1)C1CCCCC1 (stereo not drawn),inactive: -13.6%
7,CN(C)CCOC(=O)C(O)(c1ccccc1)C1CCCCC1 (stereo not drawn),inactive: -0.22%
8,Cc1ccccc1NP(C)(=O)Nc1ccccc1C,inactive: -13.6%
9,CP(=O)(Nc1ccc2c(c1)OCCO2)Oc1ccccc1 (stereo not drawn),inactive: -52.3%
10,CCOP(C)(=S)SCC(=O)NC(C)(CC)C(=O)O (stereo not drawn),inactive: 4.84%
11,CP(=O)(Nc1ccccc1F)Oc1ccccc1 (stereo not drawn),inactive: -27.8%
12,Cc1ccc(C)c(NP(C)(=O)Oc2ccccc2)c1 (stereo not drawn),inactive: -65.7%
13,Cc1nc2ccc3ccccc3c2s1.O=[N+]([O-])c1cc([N+](=O)[O-])c(O)c([N+](=O)[O-])c1,inactive: -30.4%
14,CP(=S)(Nn1cnnc1)Oc1ccccc1 (stereo not drawn),inactive: -2.26%
15,CCOP(C)(=S)SCC(=O)NC(C)C(=O)O (stereo not drawn),inactive: 1.87%
16,CP(=O)(NC(=O)Nc1ccccc1)Oc1ccccc1 (stereo not drawn),inactive: -12.2%
17,Cc1ccc(NP(C)(=O)Oc2ccccc2)c(C)c1 (stereo not drawn),inactive: -42.1%
18,COc1ccccc1OP(C)(=O)Nc1ccc(C)cc1 (stereo not drawn),inactive: -6.41%
